ChEMBL document CHEMBL1629609, “Phenotypic and enzymatic comparative analysis of the novel KPC variant KPC-5 and its evolutionary variants, KPC-2 and KPC-4” (Antimicrob Agents Chemother, 2009)

System: Escherichia coli
Experiment: Ratio of MIC for Escherichia coli TOP10 harboring beta-lactamase KPC-2 to MIC for Escherichia coli TOP10 harboring beta-lactamase KPC-4
Type: functional

`CCN1CCN(C(=O)N[C@@H](C(=O)N[C@@H]2C(=O)N3[C@@H]2SC(C)(C)[C@@H]3C(=O)O)c2ccccc2)C(=O)C1=O` [PIPERACILLIN] gave a Ratio of 4.
